Measured values from several laboratories, pooled; numbers as filed in NIAID ChemDB.

All rows: growth or infection tests; agent: Candida albicans; measure: MIC80

Blank or dashed fields: not listed here. A number after MIC or MFC names an inhibition level or a share of isolates. Lines come from different laboratories, so protocols vary.

{"compound": "COc1ccc2c(c1OC)CN1CCc3cc4c(cc3C1=C2)OCO4", "strain or isolate": "Clinical isolate", "changes": "Fluconazole-resistant", "read by": "broth dilution", "value": ">64 µg/mL"}
{"compound": "O=C(Cc1c[nH]c2ccccc12)NCCc1ccc2c(c1)OCO2", "strain or isolate": "Clinical isolate", "changes": "Fluconazole-resistant", "read by": "broth dilution", "value": ">64 µg/mL"}
{"compound": "COc1cnc2c3c(nccc13)C1SC=CC1C2=O", "value": ">64 µg/mL"}
{"compound": "Brc1ccc(C[N+]2(CCc3ccccc3)CCc3cc4c(cc3C2)OCO4)cc1.[Br-]", "strain or isolate": "Clinical isolate", "changes": "Fluconazole-resistant", "read by": "broth dilution", "value": ">64 µg/mL"}
{"compound": "Oc1ccc(N=Nc2c(Cl)cccc2Cl)c2cccnc12", "value": "31.25 µg/mL"}
{"compound": "COc1ccc2cc1Oc1ccc(cc1)CCc1ccc(OC)c(c1)Oc1ccc(cc1)CC2", "strain or isolate": "BWP17-DPP3-GFP", "read by": "broth dilution", "value": ">64 µg/mL"}
{"compound": "CC(C)(C)c1ccc(C[N+]2=C(c3ccc(F)cc3F)c3cc4c(cc3CC2)OCO4)cc1.[Br-]", "strain or isolate": "Clinical isolate", "changes": "Fluconazole-resistant", "read by": "broth dilution", "value": "64 µg/mL"}
{"compound": "Oc1ccc2c(c1)CCc1ccc(cc1)Oc1cc(ccc1O)CCc1ccc-2c(O)c1", "strain or isolate": "BWP17-DPP3-GFP", "read by": "broth dilution", "value": "16 µg/mL"}
{"compound": "CCCCCCCc1ccc(N=C(N)N)cc1", "strain or isolate": "ATCC 44859", "value": "15.63 µM"}
{"compound": "C[N+]1=Cc2cc3c(cc2CC1)OCO3.[I-]", "strain or isolate": "Clinical isolate", "changes": "Fluconazole-resistant", "read by": "broth dilution", "value": ">64 µg/mL"}
{"compound": "CC[C@@H]1C[C@@]2(CC)O/C(=C\\C(=O)OC)[C@@]3(CC)[C@H](CC)[C@]1(C)[C@@]23C", "read by": "broth dilution", "setting": "clinical isolate", "value": "13.1 µM"}
{"compound": "NC(N)=Nc1ccc(Sc2ccccc2)cc1", "strain or isolate": "ATCC 44859", "value": "500 µM"}
{"compound": "C[C@H](Cc1ccc(O)c(O)c1)[C@@H](C)Cc1ccc(O)c(O)c1", "strain or isolate": "CCC 130-2000", "read by": "broth dilution", "value": "250 µg/mL"}
{"compound": "CCCCCCCCCCCCCCSc1ccc(N=C(N)N)cc1", "strain or isolate": "ATCC 44859", "value": "125 µM"}
{"compound": "Oc1cccc(N=Cc2ccc3cccc(O)c3n2)c1", "value": "31.25 µg/mL"}
{"compound": "Oc1ccc2c(c1)CCc1ccc(O)c(c1)Oc1ccc(cc1O)CCc1cccc(O)c1O2", "strain or isolate": "BWP17-DPP3-GFP", "read by": "broth dilution", "value": ">64 µg/mL"}
{"compound": "CCCCCCSc1ccc(N=C(N)N)cc1", "strain or isolate": "ATCC 44859", "value": "31.25 µM"}
{"compound": "COc1cc(CCc2cc(OC)c(OC)c(OC)c2)cc(OC)c1OC", "strain or isolate": "BWP17-DPP3-GFP", "read by": "broth dilution", "value": "64 µg/mL"}
{"compound": "O=C(NCCc1ccc2c(c1)OCO2)C(O)c1ccccc1", "strain or isolate": "Clinical isolate", "changes": "Fluconazole-resistant", "read by": "broth dilution", "value": ">64 µg/mL"}
{"compound": "CCCCCCCCSc1ccc(N=C(N)N)cc1", "strain or isolate": "ATCC 44859", "value": "7.81 µM"}
{"compound": "COc1ccc2c(c1OC)C[N+]1(Cc3ccc([N+](=O)[O-])cc3)CCc3cc4c(cc3C1C2)OCO4.[Br-]", "strain or isolate": "Clinical isolate", "changes": "Fluconazole-resistant", "read by": "broth dilution", "value": ">64 µg/mL"}
{"compound": "CCCCCCCCCCCSc1ccc(N=C(N)N)cc1", "strain or isolate": "ATCC 44859", "value": "7.81 µM"}
{"compound": "Oc1cc2cc(c1O)Oc1ccc(cc1)CCc1cccc(O)c1Oc1cccc(c1)CC2", "strain or isolate": "BWP17-DPP3-GFP", "read by": "broth dilution", "value": ">64 µg/mL"}
{"compound": "C1=[N+](Cc2ccccc2)CCc2cc3c(cc21)OCO3.[Br-]", "strain or isolate": "Clinical isolate", "changes": "Fluconazole-resistant", "read by": "broth dilution", "value": ">64 µg/mL"}
{"compound": "CCCCCCCCCCSc1ccc(N=C(N)N)cc1", "strain or isolate": "ATCC 44859", "value": "15.83 µM"}
{"compound": "Cc1ccc2c([N+](=O)[O-])cc([N+](=O)[O-])c(O)c2n1", "value": "250 µg/mL"}

The first 3 rows once more:

compound | strain or isolate | changes | read by | setting | value
COc1ccc2c(c1OC)CN1CCc3cc4c(cc3C1=C2)OCO4 | Clinical isolate | Fluconazole-resistant | broth dilution | - | >64 µg/mL
O=C(Cc1c[nH]c2ccccc12)NCCc1ccc2c(c1)OCO2 | Clinical isolate | Fluconazole-resistant | broth dilution | - | >64 µg/mL
COc1cnc2c3c(nccc13)C1SC=CC1C2=O | - | - | - | - | >64 µg/mL